Compound potency records, mixed from different reports. Data source: NIAID ChemDB in PubChem.

Shared fields: tests in culture; agent: HIV-1; method: β-galactosidase; measure: EC50

ECn: concentration that inhibits the pathogen or its effect by n%. Lines come from different laboratories, so protocols vary. Blank or dashed fields: not listed here.

structure | strain | setting | changes | cells | value
CC[C@H](C)[C@H](C(=O)O)N1C[C@H](CN2CCC(c3cc(Cc4ccc(OC)c(OC)c4)nn3CC)CC2)[C@@H](c2cccc(F)c2)C1 | BaL |  |  | HeLa | <0.0004 µM
Cc1ccnc2c1NC(=O)c1cccnc1N2C1CC1 | NNRTI-resistant (RT V108I Y181C) |  | RT-V108I Y181C | MAGI | >10 µM
Cc1ccc(-n2nnnc2-c2cn[nH]c2-c2cccc(F)c2)cc1 | NL4.3-XCS |  | M184V (3TC-resistant) | HeLa CD4 | 0.666 µM
CCn1nc(Cc2cccnc2)cc1C1CCN(C[C@H]2CN([C@@H](C(=O)O)C(C)C)C[C@@H]2c2cccc(F)c2)CC1 | BaL | 50% human serum |  | HeLa | <0.3 µM
C#C[C@]1(CO)O[C@@H](n2cc(C)c(=O)[nH]c2=O)C[C@@H]1O |  |  | RT-M184I | HeLa | 0.14 µM
CCCOc1ccc(Cc2cc(C3CCN(C[C@H]4CN([C@@H](C(=O)O)C5CCCCC5)C[C@@H]4c4cccc(F)c4)CC3)n(CC)n2)cc1 | BaL | 50% human serum |  | HeLa | <0.1 µM
Cc1cn([C@H]2C=C[C@@H](CO)O2)c(=O)[nH]c1=O | NL4-3 WT |  |  | MAGI (CCR5) + MAGI | 0.25 µM
Cc1ccnc2c1NC(=O)c1cccnc1N2C1CC1 | NL4-3 |  | WT | HeLa CD4 | 0.028 µM
C=C[C@]1(CO)O[C@@H](n2cc(C)c(=O)[nH]c2=O)C[C@@H]1O | RTMDR |  | RT | HeLa | 9.7 µM
CSc1ccccc1NC(=O)CSc1nnnn1-c1ccccc1SC | NL4.3-XCS |  | 41-215 (AZT-resistant) | HeLa CD4 | 0.137 µM
Nc1ccn([C@H]2C[C@H](O)[C@](CO)(CF)O2)c(=O)n1 |  |  | RT-M184V | HeLa | 2 µM
Cc1cc(O)cc(S(=O)(=O)c2cccc(N)c2C#N)c1 |  |  | RT-V106A Y181C | HeLa + HELA CD4+ | 2.1 µM
C#C[C@]1(CO)O[C@@H](n2cc(I)c(=O)[nH]c2=O)C[C@@H]1O | RTMDR |  | RT | HeLa | 0.32 µM
Cc1ccnc2c1NC(=O)c1cccnc1N2C1CC1 | NL4-3 |  | RT-M184V | MAGI (CCR5) + MAGI | 0.066 µM
O=C(O)/C=C/c1ccc[c]([Sb](=[O])([OH])[OH])c1 | NL4-3 X4 |  |  | MAGI | <20 µM
CCn1nc(Cc2ccc(OCC(F)(F)F)cc2)cc1C1CCN(C[C@H]2CN([C@@H](C(=O)O)C(C)(C)C)C[C@@H]2c2cccc(F)c2)CC1 | BaL |  |  | HeLa | <0.0012 µM
Cc1cc(Cl)cc(S(=O)(=O)c2cccc(N)c2C#N)c1 |  |  | RT-V106A | HeLa + HELA CD4+ | 0.0015 µM
CCOc1ccc(Cc2cc(C3CCN(C[C@H]4CN([C@@H](C(=O)O)[C@@H](C)CC)C[C@@H]4c4cccc(F)c4)CC3)n(CC)n2)cc1F | BaL | 50% human serum |  | HeLa | <0.011 µM
Cc1cc(Br)cc(S(=O)(=O)c2cccc(N)c2C#N)c1 |  |  | RT-K103N | HeLa + HELA CD4+ | 1.1 µM
CC[C@H](C)[C@H](C(=O)O)N1C[C@H](CN2CCC(c3cc(Cc4ccc(C(F)(F)F)cc4)nn3CC)CC2)[C@@H](c2cccc(F)c2)C1 | BaL | 50% human serum |  | HeLa | <0.033 µM
COc1cc(C(F)(F)F)cc(S(=O)(=O)c2cccc(N)c2C#N)c1 |  |  | RT-K103N | HeLa + HELA CD4+ | 1.8 µM
Cc1cn([C@H]2C[C@H](N=[N+]=[N-])[C@@H](CO)O2)c(=O)[nH]c1=O | NL4-3 |  | WT | HeLa CD4 | 0.043 µM

A second listing of 2 rows from above:

structure | strain | setting | changes | cells | value
CCOc1ccc(Cc2cc(C3CCN(C[C@H]4CN([C@@H](C(=O)O)[C@@H](C)CC)C[C@@H]4c4cccc(F)c4)CC3)n(CC)n2)cc1F | BaL | 50% human serum |  | HeLa | <0.011 µM
Nc1ccn([C@H]2C[C@H](O)[C@](CO)(CF)O2)c(=O)n1 |  |  | RT-M184V | HeLa | 2 µM